This data set has as its system Huh6 cells.

As for Aflatoxin B1 [AFB1], the CBPI amounted to 1.9 ± 0.1.

The values are drawn from PMC6492180, “Cytome micronucleus assays with a metabolically competent human derived liver cell line (Huh6): A promising approach for routine testing of chemicals?” (Environmental and Molecular Mutagenesis, 2018).
